Values from PubChem BioAssay AID624099 (ICCB-Longwood, 2012)
This is an unselected part of about 21,000 reagents tested. Of all reagents, 497 (2.4%) were called active. 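Higher z means weaker E2 silencing; only reporter increases were scored, and knock-downs that hurt cell survival may mask genuine repressor factors.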

- Screen: 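Host factors E2 relies on to silence an HPV18 LCR reporter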 (primary screen)
- Cell system: human C33A cervical carcinoma cells (HPV-negative) stably expressing BPV1 E2 and an HPV18 LCR luciferase reporter
- Knock-down reagent: siRNA pool against human genes, 40 nM
- Timing: 72 h
- Read-out: 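Per-well luciferase luminescence, z-scored on each plate against the plate mean and SD with control wells left out, then averaged across three replicate plates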
- Direction: mean z-score and z-score: higher = stronger reporter signal, weaker E2 silencing
- Active means: 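Mean z ≥ 2 together with z ≥ 2 in two or more of the three replicates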

gene,PubChem SID,mean z-score,"z-score, replicate A","z-score, replicate B","z-score, replicate C",call
CREG2 (GeneID 200407),SID134320878,-0.75,-0.86,-1.07,-0.34,inactive
PPP1R9B (GeneID 84687),SID134319017,-0.56,-0.55,-0.47,-0.67,inactive
SSR3 (GeneID 6747),SID134316650,-0.9,-0.79,-1.14,-0.78,inactive
PLXNB2 (GeneID 23654),SID134329127,-0.4,-0.41,-0.35,-0.43,inactive
CRIP3 (GeneID 401262),SID134329450,0.23,0.38,0.11,0.19,inactive
MNAT1 (GeneID 4331),SID56478624,-0.32,-0.31,-0.27,-0.36,inactive
LOC388852 (retired record) (GeneID 388852),SID134329082,-0.01,-0.1,0.01,0.05,inactive
SPINK2 (GeneID 6691),SID134317015,-0.08,-0.11,-0.14,0,inactive
RAPGEF2 (GeneID 9693),SID134314459,-1.7,-1.71,-1.84,-1.53,inactive
UGT2B28 (GeneID 54490),SID134319238,0.17,-0.29,0.22,0.59,inactive
LOC388141 (retired record) (GeneID 388141),SID134328562,-0.73,-0.57,-0.89,-0.73,inactive
RAB9BP1 (GeneID 9366),SID134329733,1.24,0.84,1.42,1.46,inactive
ISOC1 (GeneID 51015),SID134324525,1.28,1.41,1.08,1.34,inactive
LOC389252 (retired record) (GeneID 389252),SID134327458,-1.15,-0.63,-1.42,-1.41,inactive
FBXL3 (GeneID 26224),SID134316694,2.7,2.75,2.8,2.55,active
SPIRE1 (GeneID 56907),SID134325681,1.24,1.04,1.29,1.4,inactive
CTBP1-DT (GeneID 92070),SID134319196,-0.03,0.02,-0.19,0.09,inactive
SRSF12 (GeneID 135295),SID134320377,0.05,0.15,-0.05,0.05,inactive
ATF6B (GeneID 1388),SID134313658,1.05,0.38,1.41,1.36,inactive
HORMAD2 (GeneID 150280),SID134320824,-0.17,0.21,-0.06,-0.67,inactive
HFE (GeneID 3077),SID134315415,-0.96,-1.04,-1.02,-0.82,inactive
PATL1 (GeneID 219988),SID134319625,0.07,0.19,-0.05,0.08,inactive
PDE4C (GeneID 5143),SID134312693,-0.2,-0.63,-0.48,0.53,inactive
HAND2 (GeneID 9464),SID134313556,0.97,1,0.79,1.11,inactive
LOC388528 (retired record) (GeneID 388528),SID134328887,0.72,0.57,0.74,0.85,inactive
KLHL14 (GeneID 57565),SID134325686,2.37,2.8,2.06,2.25,active
FGFR3 (GeneID 2261),SID56478513,0.63,0.91,0.26,0.71,inactive
UBR7 (GeneID 55148),SID134320479,-0.54,-0.74,-1.06,0.17,inactive
HNRNPA1 (GeneID 3178),SID134313106,0.9,1.29,0.77,0.64,inactive
IFT38 (GeneID 23059),SID134318602,0.77,0.55,0.56,1.21,inactive
PANX1 (GeneID 24145),SID134322126,0.28,0.35,0.45,0.04,inactive
MGAT4A (GeneID 11320),SID134316713,-0.28,-0.26,-0.37,-0.21,inactive
ZNF770 (GeneID 54989),SID134325319,1.62,1.86,1.68,1.31,inactive
RMND5A (GeneID 64795),SID134319480,-0.31,-0.15,-0.87,0.08,inactive
LINC02396 (GeneID 283332),SID134328358,-0.08,-0.1,-0.37,0.22,inactive
TOMM7 (GeneID 54543),SID134317971,-1.26,-1.35,-1.29,-1.13,inactive
SFXN1 (GeneID 94081),SID134315179,0.22,0.02,0.34,0.3,inactive
TNFSF4 (GeneID 7292),SID134315757,-0.12,0,-0.31,-0.06,inactive
CXCL13 (GeneID 10563),SID134312811,1,0.83,1.03,1.14,inactive
LINC02649 (GeneID 399715),SID134328198,-0.45,-0.29,-0.35,-0.7,inactive
LY6K (GeneID 54742),SID134317980,1.39,1.6,1.39,1.2,inactive
TARS3 (GeneID 123283),SID134319761,1.26,1.21,1.61,0.95,inactive
GJD4 (GeneID 219770),SID134319849,1.17,0.87,1.3,1.34,inactive
LOC388065 (retired record) (GeneID 388065),SID134328855,0.36,0.5,0.15,0.43,inactive
GFPT2 (GeneID 9945),SID134314960,0.46,0.67,0.51,0.19,inactive
ITGBL1 (GeneID 9358),SID134323616,-0.22,-0.39,-0.41,0.14,inactive
ASH1L (GeneID 55870),SID134324159,-0.26,-0.2,-0.13,-0.44,inactive
PRKCB (GeneID 5579),SID56478724,0.43,0.55,-0.05,0.78,inactive
CATSPERD (GeneID 257062),SID134319606,-0.4,0.06,-0.48,-0.78,inactive
GNB1 (GeneID 2782),SID134321191,0.12,0.25,-0.05,0.16,inactive
CSNK1G2 (GeneID 1455),SID56478845,-0.19,-0.25,0.08,-0.4,inactive
NFX1 (GeneID 4799),SID134311864,-0.69,-0.55,-0.79,-0.72,inactive
HNRNPA3P4 (GeneID 389395),SID134327701,0.77,0.54,0.85,0.92,inactive
COMMD10 (GeneID 51397),SID134319781,-0.52,-0.34,-0.45,-0.76,inactive
ALKBH4 (GeneID 54784),SID134310360,-1.04,-1.14,-1,-0.99,inactive
GPAT2 (GeneID 150763),SID134314876,0.07,0,0.02,0.19,inactive
MOG (GeneID 4340),SID134316904,-0.39,-0.5,-0.37,-0.31,inactive
PRR35 (GeneID 146325),SID134320062,0.21,0.17,0.12,0.35,inactive
RYR1 (GeneID 6261),SID134311710,1.08,0.83,1.1,1.31,inactive
NDUFAF1 (GeneID 51103),SID134324624,0.04,0.15,0.03,-0.07,inactive
LOC81787 (retired record) (GeneID 81787),SID134328613,-0.46,-0.61,-0.53,-0.23,inactive
OGG1 (GeneID 4968),SID134310769,-1.33,-1.47,-1.21,-1.32,inactive
C19orf33 (GeneID 64073),SID134325797,0.73,-0.14,0.74,1.59,inactive
UBQLN1 (GeneID 29979),SID134317190,0.17,0.27,0.3,-0.05,inactive
FZD4 (GeneID 8322),SID134310946,-0.3,-0.14,-0.54,-0.22,inactive
POU3F3 (GeneID 5455),SID134323872,-0.38,-0.64,-0.31,-0.18,inactive
ASPHD1 (GeneID 253982),SID134310209,0.03,-0.37,0.32,0.13,inactive
FIRRE (GeneID 286467),SID134329175,2.01,1.78,2.28,1.99,inactive
PPIF (GeneID 10105),SID134314432,-0.11,-0.58,0.98,-0.74,inactive
NDP (GeneID 4693),SID134315452,-0.5,-0.68,-0.34,-0.47,inactive
LOC113386 (retired record) (GeneID 113386),SID134320556,2,1.91,2.02,2.06,active
LOC401220 (retired record) (GeneID 401220),SID134327517,-0.37,-0.57,-0.51,-0.05,inactive
GPR161 (GeneID 23432),SID134311150,-1.79,-1.62,-1.68,-2.06,inactive
